Earlier results as cited in publication PMC4981318.

Target: gp41 35-144 (construct B, core N-HR/C-HR) none stated (IL replaced by L6 spacer) (UniProt P04578)
Experiment: not stated in this article (quoted from refs 51 and 38)
Settings: pH 7.6; 150 mM NaCl at pH 7.6; not stated at low pH; 10 mM Tris at pH 7.6; not stated at pH 3.5 to 6; cited from earlier work

## gp41 35-144 (construct B, core N-HR/C-HR) none stated (IL replaced by L6 spacer)
  trimer dissociation constant: below 250 nM
